From patent publication US20090068243A1, “Novel formulations for delivery of antiviral peptide therapeutics” (priority 2007, published 2009)

Key:
[1] = tested on: IIIB; settings: starting virus isolate IIIB; for # of Mutations Acquired: gp41 genotype
Text: (§1) Assessment of biological properties included measurement of antiviral activity against HIV-1 strains. […] These assays score for reduction of infectious virus titer employing the indicator cell lines MAGI or the CCR5 expressing derivative cMAGI. Both cell lines exploit the ability of HIV-1 tat to transactivate the expression of a β-galactosidase reporter gene driven by the HIV-LTR. The β-gal reporter has been modified to localize in the nucleus and can be detected with the X-gal substrate as intense nuclear staining within a few days of infection. The number of stained nuclei can thus be interpreted as equal to the number of infectious virions in the challenge inoculum if there is only one round of infection prior to staining. […] In the MAGI and cMAGI assays, a 50% reduction in infectious titer (Vn/Vo=0.5) is significant, and provides the primary cutoff value for assessing antiviral activity (“IC50” is defined as the concentration of active ingredient resulting in a 50% reduction in infectious virus titer). […] The peptide (in the respective dilution) was added to the cMAGI or MAGI cells, followed by the virus inocula; and 24 hours later, an inhibitor of infection and cell-cell fusion (e.g., SEQ ID NO:2 (enfuvirtide)) was added to prevent secondary rounds of HIV infection and cell-cell virus spread. The cells were cultured for 2 more days, and then fixed and stained with the X-gal substrate to detect HIV-infected cells. The number of infected cells for each control and peptide dilution was determined with the CCD-imager, and then the IC50 was calculated (expressed in μg/ml).
(§2) In particular, in vitro resistance comparison studies were performed between the novel SEQ ID NO:9 compound of interest and established antiviral agent SEQ ID NO:2, described in detail as follows: MT2 cells were infected with virus isolates (IIIB, 030, 060 and 098) and cultured in increasing concentrations of SEQ ID NO:2 (enfuvirtide) or SEQ ID NO:9 to select for resistance. The initial peptide concentration was approximately 2 times the IC50 of each peptide against the corresponding wild type isolate. Peptide concentrations were maintained by adding fresh peptide every 1-3 days. Cultures were monitored for cytopathic effect (CPE) using standard techniques and when maximal CPE was achieved, a small aliquot of virus was used for subsequent rounds of infection. Peptide concentrations were increased 2 to 4-fold depending on the length of time in culture when compared to the growth rate of wild type virus. During the course of selection, peptide-free virus stocks were also collected. Peptide-free virus stocks were characterized for gp41 genotypic changes by dideoxy sequencing chemistries and phenotypic susceptibility was determined using a cMAGI infectivity assay.

[2] = tested on: 584.000060; settings: for Days in Culture: starting virus isolate 584.000060; for # of Mutations Acquired: starting virus isolate 584.000060, gp41 genotype
Text: as §1, §2

[3] = tested on: virus isolates (IIIB, 030, 060 and 098)
Text: as §1, §2

[4] = tested on: 584.000098; settings: for Days in Culture: starting virus isolate 584.000098; for # of Mutations Acquired: starting virus isolate 584.000098, gp41 genotype
Text: as §1, §2

[5] = tested on: 584.000030; settings: starting virus isolate 584.000030, gp41 genotype
Text: as §1, §2

[6] = Geometric Mean of four isolates

| Substance | Days in Culture [1] | # of Mutations Acquired [1] | Days in Culture [2] | # of Mutations Acquired [2] | # of Mutations Acquired [3, 6] | Days in Culture [3, 6] | time in culture relative to SEQ ID NO:2 selections ([3]; average over selections) | Days in Culture [4] | # of Mutations Acquired [4] | # of Mutations Acquired [5] |
| --- | --- | --- | --- | --- | --- | --- | --- | --- | --- | --- |
| Ac-TTWEAWDRAIAEYAARIEALLRALQEQQEKNEAALREL-NH2 [SEQ ID NO:9, TTWEAWDRAIAEYAARIEALLRALQEQQEKNEAALREL] | 168 days | 4 | 173 days | 4 | 3.6 | 140 days | ~3 times | 173 days | 5 | 2 |
| enfuvirtide | 62 days | 2 | 46 days | 2 |  | 49 days |  | 45 days | 1 | 2 |
